Reference: patent US20240050582A1, “CONJUGATES INCLUDING MULTIPLE SACCHARIDIC CHAINS ON A LINEAR PROTEIN AND USES IN MAMMALS FEED” (UNIVERSITEIT GENT, priority 2021, published 2024)

How the values were obtained:
fecal microbiota = test: Part E: fecal microbiota (16S rRNA)
[1] = tested on: inflammation and tight junction markers; test: Part E: blood cell counts, serum inflammatory markers, mucosal gene expression
[2] = d 5 PI, compared with control pigs, linear, P<0.05

**Q.** Which results are given for CNCCCCC(CNCCCCC(N)C(=O)NCCCCC(N)C(C)=O)NCC(O)C(O)C(O[C@@H]1OC(CO)[C@H](O)C(O[C@@H]2OC(CO)[C@@H](O)C(O[C@@H]3OC(CO)[C@H](O)C(O[C@H]4OC(CO)[C@H](O)C(O)C4NC(C)=O)C3O[C@@H]3OC(C)[C@@H](O)C(O)C3O)C2NC(C)=O)C1O)C(O)CO (some centres unmarked) [Coligo A6PL]?
**A.** relative abundance of Lactobacillaceae (fecal microbiota; Coligo groups vs antibiotics group): greater; relative abundance of Desulfovibrionaceae in fecal samples (fecal microbiota; [2]): greater; relative abundance of Succinivibrionaceae in fecal samples (fecal microbiota; [2]): lower; Bacteroidetes and Proteobacteria in feces (fecal microbiota; d 5 PI, compared with the control diet, regardless of dose, P<0.10): to increase Bacteroidetes and reduce Proteobacteria; relative abundance of Paraprevotellaceae (fecal microbiota; low Coligo vs the other groups, P<0.05): lower; numbers of white blood cell, neutrophils, and lymphocytes ([1]; d 2 PI): lower; neutrophils ([1]; d 5 PI): lower; mRNA expression of ZO1 and OCLN ([1]; high dose of Coligo, peak of E. coli infection, compared with control pigs): enhanced; CLDN1 expression ([1]; low dose Coligo, d 11 PI, compared with control pigs): relatively high CLDN1 expression; serum C-reactive protein and haptoglobin ([1]; low dose or high dose Coligo groups): reduced; mRNA expression of inflammatory markers (IL1B, IL6, TNF) in ileal mucosa ([1]; pig, in vivo): relative low mRNA expression
